System: Neuraminidase from Clostridium perfringens (bacterial neuraminidase)
Format: binding
Conditions: fluorescence quenching

SMILES | n (number of binding sites)
CC(C)=CCc1cc(-c2cc(=O)c3c(O)cc(O)c(CC=C(C)C)c3o2)cc(O)c1O [Compound 1, epimedokoreanin B] | 1.6920
CC(C)=CCc1c(O)cc(O)c2c1OC(c1ccc(O)cc1)C(O)C2=O (centres unmarked) [Compound 2, 8-(γ,γ-dimethylallyl)-5,7,4′-trihydroxydihydroflavonol] | 1.1974
CC(C)=CCc1cc(-c2cc(=O)c3c(O)cc(O)c(CC=C(C)C)c3o2)ccc1O [Compound 3, 5,7,4′-trihydroxy-8,3′-diprenyl flavone] | 1.1206
COc1ccc(-c2oc3c(CC=C(C)C)c(O[C@@H]4O[C@H](CO)[C@@H](O)[C@H](O)[C@H]4O)cc(O)c3c(=O)c2O[C@@H]2O[C@@H](C)[C@H](O)[C@@H](O)[C@H]2O)cc1 [Compound 5, icariin] | 0.8147
COc1ccc(-c2oc3c(CC=C(C)C)c(O)cc(O)c3c(=O)c2O[C@@H]2O[C@@H](C)[C@H](O)[C@@H](O)[C@H]2O[C@@H]2OC[C@@H](O)[C@H](O)[C@H]2O)cc1 [Compound 6, sagittatoside B] | 0.7006
COc1ccc(-c2oc3c(c(O)cc4oc(C(C)(C)OC)cc43)c(=O)c2OC2OC(C)C(O)C(O)C2O)cc1 [Compound 7, 5-hydroxy-2-(4-methoxyphenyl)-8-(2-methoxypropan-2-yl)-3-(((2S,3R,4R,5R,6S)-3,4,5-trihydroxy-6-methyltetra-hydro-2H-pyran-2-yl)oxy)-4H-furo[2-3-h]chromen-4-one] | 1.1733
O=C1c2c(O)cc(O)cc2O[C@H](c2ccc(O)cc2)[C@H]1O [Dihydrokaempferol, dihydrokaempferol, reference compound] | 0.5758
O=c1cc(-c2ccc(O)c(O)c2)oc2cc(O)cc(O)c12 [Luteolin, luteolin, reference compound] | 0.7662

— article PMC6359343 (Molecules, 2019)
